Laboratory results from BindingDB's records for doi:10.1046/j.1432-1033.2003.03533.x (Uppsala University, 2003).

These compounds were tested against T1, Dimer of Gag-Pol polyprotein [489-587] (Human immunodeficiency virus 1, UniProt P12497) (assay: Enzyme Inhibition Assay). Conditions: pH 5; 30 °C.
T1 construct: 489-587

First: O=C(NCc1ccccc1)[C@H](OCc1ccccc1)[C@H](O)[C@@H](O)[C@@H](OCc1ccccc1)C(=O)N[C@H]1c2ccccc2C[C@H]1O [(2R,3R,4R,5R)-N-benzyl-2,5-bis(benzyloxy)-3,4-dihydroxy-N'-[(1S,2R)-2-hydroxy-2,3-dihydro-1H-inden-1-yl]hexanediamide]
Second: O=C(N[C@H]1c2ccccc2C[C@H]1O)[C@H](OCc1ccccc1)[C@H](O)[C@@H](O)[C@@H](OCc1ccccc1)C(=O)N[C@H]1c2ccccc2C[C@H]1O [symmetric/asymmetric inhibitor 2]
The Ki of the first is 2-fold lower: 0.1 nM for the first, 0.2 nM for the second.

First: CNC(=O)[C@@H](NC(=O)[C@H](OCc1ccc(-c2cccnc2)cc1)[C@H](O)[C@@H](O)[C@@H](OCc1ccc(-c2cccnc2)cc1)C(=O)N[C@H](C(=O)NC)C(C)C)C(C)C [N1,N6-Bis[(1S)-2-methyl-1-(methylcarbamoyl)propyl]-(2R,3R,4R,5R)-2,5-bis[4-(3-pyridyl)benzyloxy]-3,4-dihydroxyhexanediamide]
Second: CNC(=O)[C@@H](NC(=O)[C@H](OCc1ccc(-c2ccsc2)cc1)[C@H](O)[C@@H](O)[C@@H](OCc1ccc(-c2ccsc2)cc1)C(=O)N[C@H](C(=O)NC)C(C)C)C(C)C [N1,N6-Bis[(1S)-2-methyl-1-(methylcarbamoyl)propyl]-(2R,3R,4R,5R)-2,5-bis[4-(3-thienyl)benzyloxy]-3,4-dihydroxyhexanediamide]
The Ki of the first is 12-fold lower: 0.1 nM for the first, 1.2 nM for the second. The first binds more tightly here.
